Test results published in PubChem BioAssay AID602405 (Broad Institute, 2012).
The list shows a part of the results, in another mix than the full data. Activity calls are given as the source filed them. Cut-off read from the data, not from the text of the source: active = inhibition above about 16% (passing the limit was not always enough); inconclusive = no clear call, values can overlap the other calls; inactive = below that.

system: UDP-N-acetylbacillosamine N-acetyltransferase PglD (Campylobacter jejuni); assay: blockers of PglD enzyme activity – biochemical, DTNB colorimetric, single point, primary screen (AID 602405); settings: purified PglD enzyme, DTNB colorimetric CoA detection; at 12.5 µM; active compounds read high

| Structure (SMILES) | inhibition |
| --- | --- |
| CSc1ccc(C(=O)NCC2(N3CCOCC3)CCCCC2)cc1 | inactive: -0.382% |
| O=c1[nH]c2ccccc2n1C1CCN(C(c2ccccc2OC(F)(F)F)c2nnnn2C2CCCC2)CC1 (stereo not drawn) | inactive: 3.78% |
| N#CC1(Nc2ccccc2)CCN(CCc2ccccc2)CC1 | inactive: -2.93% |
| CCN1CCC(Nc2ccc(Cl)cc2)CC1 | inactive: -6.29% |
| O=c1[nH]c2ccccc2n1C1CCN(C(c2ccccc2)c2nnnn2C2CCCCC2)CC1 (stereo not drawn) | inactive: 4.08% |
| O=c1[nH]c2ccccc2n1C1CCN(C(c2cccc3ccccc23)c2nnnn2C2CCCC2)CC1 (stereo not drawn) | inactive: -5.1% |
| CCOC(=O)N1CCC(Nc2cccc(C)c2)CC1 | inactive: 5.66% |
| COc1cc(C(=O)NCC2(N(C)C)CCCCC2)ccc1OC(F)F | inactive: -4% |
| O=C1CCN(Cc2ccccc2)CC1 | inactive: -6.03% |
| CC(C)(C)n1nnnc1C(c1ccccc1)N1CCC(n2c(=O)[nH]c3ccccc32)CC1 (stereo not drawn) | inactive: 6.06% |
| COc1ccc(NC2CCN(CCc3ccccc3)CC2)c(OC)c1 | inactive: -1.23% |
| CCOC(=O)N1CCC(Nc2ccc(F)cc2)CC1 | inactive: 4.79% |
| O=P1(N(CCCl)CCCl)SCCCS1 | inactive: -5.85% |
| CCCCn1nnnc1C(c1cc2ccccc2o1)N1CCC(n2c(=O)[nH]c3ccccc32)CC1 (stereo not drawn) | inactive: -5.71% |
| CCCCOc1ccc(C(=O)NCC2(N3CCOCC3)CCCCC2)cc1 | inactive: 3.6% |
| O=C(NCC1(N2CCCCC2)CCCCC1)c1ccc(F)cc1 | inactive: 2.76% |
| Cc1cc(C)cc(N(C(=O)c2ccccc2)C2CCN(C(=O)OC(C)(C)C)CC2)c1 | inactive: -8.32% |

| Structure (SMILES) | inhibition |
| --- | --- |
| O=C(NCC1(N2CCCCC2)CCCCC1)c1ccc(Cl)nc1 | inactive: 2.11% |
| O=c1[nH]c2ccccc2n1C1CCN(C(c2ccccc2OC(F)(F)F)c2nnnn2C2CCCCC2)CC1 (stereo not drawn) | inactive: 1.36% |
| CCCCn1nnnc1C(c1ccc(OC)cc1)N1CCC(n2c(=O)[nH]c3ccccc32)CC1 (stereo not drawn) | inactive: -1.34% |
| CCOC(=O)N1CCC(Nc2ccc(OC)cc2)CC1 | inactive: 5.8% |
| O=C(NCC1(N2CCCCC2)CCCCC1)c1ccc(Cl)s1 | inactive: 1.4% |
| O=C(OC1CN2CCC1CC2)C1c2ccccc2Oc2ccccc21 (stereo not drawn) | inactive: 4.62% |
| O=c1[nH]c2ccccc2n1C1CCN(C(c2cc3ccccc3o2)c2nnnn2C2CCCCC2)CC1 (stereo not drawn) | inactive: 0.772% |
| CCCCn1nnnc1C(CC)N1CCC(n2c(=O)[nH]c3ccccc32)CC1 (stereo not drawn) | inactive: 3.79% |
| O=C(NCC1(N2CCCCC2)CCCCC1)c1cccs1 | inactive: 8.19% |
| CCCCn1nnnc1C(c1cccs1)N1CCC(n2c(=O)[nH]c3ccccc32)CC1 (stereo not drawn) | inactive: 0.832% |
| O=C(NCC1(N2CCCCC2)CCCCC1)c1ccc(=O)[nH]c1 | inactive: 4.05% |
| CC(C)(C)OC(=O)N1CCC(N(C(=O)c2ccccc2)c2ccc(F)cc2)CC1 | inactive: -5.48% |
| CCC(c1nnnn1C1CCCC1)N1CCC(n2c(=O)[nH]c3ccccc32)CC1 (stereo not drawn) | inactive: -2.7% |
| COc1ccc(C(=O)NCC2(N3CCCCC3)CCCCC2)cc1 | inactive: 4.56% |
| Cc1cccc(NC2(C#N)CCN(Cc3ccccc3)CC2)c1 | inactive: 4.55% |
| CSc1ccccc1C(=O)NCC1(N2CCCCC2)CCCCC1 | inactive: -3.16% |
